PubChem BioAssay AID504761, Drosophila RNAi Screening Center, 2011
The screen tested about 22,000 reagents; below is a random part of those that have a named target and a result. Of all reagents, 116 (0.52%) are marked active. 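Calls depend on retest data that are not deposited; infection was ranked per plate without normalising between plates; the unit of the infection score is not given.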 The raw values are shown without normalisation. Reagents against one gene are numbered here. The record does not give: the amount of reagent, the time to read-out.

Test: 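Insect host genes that dengue virus relies on to spread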 (primary screen)
Cells: D.Mel-2 cells from Drosophila
Reagents: long dsRNA against Drosophila genes
Challenge: infection with dengue virus type 2; dose and infection time not stated
Measured: 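Per well on two replicate plates, imaging gave the percent of cells positive for viral envelope protein, ranked by infection, and a nuclear count of cells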
Direction: infection score: higher = more virus-infected cells; cell count: higher = more cells in the well
Rule for the call: 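Low infection ranks in the two replicates (chance level up to 0.065) followed by a retest with a 1.5-fold or larger significant decrease, p below 0.05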
Calls: active = confirmed: knock-down lowers infection; inactive = not picked or not confirmed

| gene | dsRNA no. | infection score, replicate 1 | infection score, replicate 2 | cell count, replicate 1 | cell count, replicate 2 | Call |
| --- | --- | --- | --- | --- | --- | --- |
| CG31898 | 1 | 2.91 | 1.48 | 6091 | 5999 | inactive |
| Fad2 | 1 | 0.52 | 1.41 | 4964 | 5179 | inactive |
| Fad2 | 2 | 2.13 | 4.46 | 6277 | 5893 | inactive |
| ApepP | 1 | 1.64 | 6.04 | 6633 | 6239 | inactive |
| CG17751 | 1 | 2.26 | 2.71 | 6585 | 6650 | inactive |
| CG17751 | 2 | 1.27 | 8.9 | 6202 | 6729 | inactive |
| CG17751 | 3 | 2.22 | 4.5 | 5502 | 6440 | inactive |
| Teh2 | 1 | 2.71 | 3.19 | 6020 | 5805 | inactive |
| Teh2 | 2 | 7.56 | 13.1 | 1336 | 1423 | inactive |
| CG9777 | 1 | 1.35 | 2.48 | 6502 | 6521 | inactive |
| CG32198 | 1 | 0.94 | 0.07 | 6595 | 5917 | inactive |
| CG32198 | 2 | 5.12 | 7.13 | 6334 | 6521 | inactive |
| CG4676 | 1 | 24.8 | 15.4 | 5837 | 4091 | inactive |
| CG6739 | 1 | 3.92 | 7.95 | 6409 | 2580 | inactive |
| CG14354 | 1 | 0.48 | 4.42 | 6941 | 1990 | inactive |
| l(3)07882 | 1 | 4.35 | 6.63 | 6259 | 6089 | inactive |
| CG9682 | 1 | 14.4 | 15 | 6572 | 6766 | inactive |
| CG9682 | 2 | 6.22 | 1.88 | 6611 | 6213 | inactive |
| CG12560 | 1 | – | 6.47 | 584 | 6595 | inactive |

Sorted by “cell count, replicate 1” (ascending): 7 of the entries above
| gene | dsRNA no. | infection score, replicate 1 | infection score, replicate 2 | cell count, replicate 1 | cell count, replicate 2 | Call |
| --- | --- | --- | --- | --- | --- | --- |
| Teh2 | 2 | 7.56 | 13.1 | 1336 | 1423 | inactive |
| CG17751 | 3 | 2.22 | 4.5 | 5502 | 6440 | inactive |
| CG4676 | 1 | 24.8 | 15.4 | 5837 | 4091 | inactive |
| Teh2 | 1 | 2.71 | 3.19 | 6020 | 5805 | inactive |
| CG32198 | 2 | 5.12 | 7.13 | 6334 | 6521 | inactive |
| CG9777 | 1 | 1.35 | 2.48 | 6502 | 6521 | inactive |
| CG32198 | 1 | 0.94 | 0.07 | 6595 | 5917 | inactive |

The list goes on.
| gene | dsRNA no. | infection score, replicate 1 | infection score, replicate 2 | cell count, replicate 1 | cell count, replicate 2 | Call |
| --- | --- | --- | --- | --- | --- | --- |
| Phyhd1 | 1 | 7.92 | 1.81 | 2627 | 609 | inactive |
| Phyhd1 | 2 | 3.48 | 8.62 | 6400 | 6546 | inactive |
| Acsl | 1 | 4.42 | 8.68 | 5902 | 5648 | inactive |
| sima | 1 | 3.11 | 6.55 | 4208 | 3862 | inactive |
| sima | 2 | 32 | 14.4 | 5575 | 5238 | inactive |
| MstProx | 1 | 1.65 | 3.63 | 6418 | 6608 | inactive |
| MstProx | 2 | 7.15 | 5.95 | 6570 | 6534 | inactive |
| CG5440 | 1 | 1.08 | 5.82 | 6293 | 7234 | inactive |
| CG5440 | 2 | 2.11 | 12 | 570 | 5522 | inactive |
| CG14053 | 1 | 2.71 | 0.32 | 5835 | 6587 | inactive |
| CG31960 | 1 | 4.24 | 1.38 | 6603 | 6506 | inactive |
| CG31960 | 2 | 11.2 | 5.36 | 5836 | 6564 | inactive |
| Him | 1 | 14.5 | 16.3 | 5484 | 6735 | inactive |
| TM4SF | 1 | 15.7 | 31.6 | 6591 | 5560 | inactive |
| CG31288 | 1 | 8.93 | 1.69 | 5498 | 7060 | inactive |
| CG31288 | 2 | 14.6 | 26.5 | 6444 | 5116 | inactive |
| Pi4KIIIalpha | 1 | 7.43 | 2.83 | 5542 | 5893 | inactive |
| Cnep1r2 | 1 | 5.5 | 8.36 | 6725 | 6447 | inactive |
| TotC | 1 | 2.17 | 2.28 | 5957 | 5838 | inactive |
| CG6059 | 1 | 3.03 | 7.15 | 6987 | 6367 | inactive |
